Measured values from several laboratories, pooled; numbers as filed in NIAID ChemDB.

All rows: target-level tests; species: HIV-1; target: Integrase; endpoint: IC50

ICn is the concentration giving n% inhibition. An empty or dashed field is not shown. Two numbers with a dash give a range or band. Lines come from different laboratories, so protocols vary.

O=[N+]([O-])c1cc(C(F)(F)F)ccc1S(=O)(=O)c1ccccc1 ; read by: 3′ processing ; value: >100 µM
O=c1cc(O)cc(/C=C/c2ccc(O)c(O)c2)o1 ; read by: strand transfer ; value: 24 µM
NC(N)=NS(=O)(=O)c1ccc(Nc2c3ccccc3nc3c(C(=O)NC(CO)(CO)CO)cccc23)cc1 ; read by: 3′ processing ; strain: RF ; value: >180 µM
O=[N+]([O-])c1cc(Cl)ccc1S(=O)(=O)c1ccccc1 ; read by: strand transfer ; value: 82.5 µM
N#CC(C#N)=Cc1cc(O)c(O)c(O)c1 ; read by: 3′ processing / substrate cleavage ; value: 5–10 µM
O=C1Cc2ccccc2C(=O)N1O ; read by: strand transfer ; value: 7.91 µM
CCOC(=O)C1C/C(=C\c2ccc(O)c(O)c2)C(=O)/C(=C/c2ccc(O)c(O)c2)C1 ; read by: 3′ processing ; value: 0.2 µM
Cc1cnc(NCCCN(C)C)c2c1[nH]c1ccc3cc(O)ccc3c12 ; read by: strand transfer ; value: 31.4 µM
O=[N+]([O-])c1ccccc1S(=O)(=O)c1ccccc1[N+](=O)[O-] ; read by: 3′ processing ; value: >100 µM
O=c1cc2c(=O)oc3cc(O)c(O)oc3c2c(O)c1O ; read by: 3′ processing ; value: 2.9 µM
OC1/C(=C/c2ccc(Cl)c(Cl)c2)COC/C1=C\c1ccc(Cl)c(Cl)c1 ; read by: strand transfer ; value: >100 µM
COC(=O)C(=O)c1c(-c2ccc(O)c(OC)c2)[nH]c2[nH]n(-c3ccccc3)c(=O)c2c1=O ; read by: 3′ processing ; value: >250 µM
O=C(/C=C/c1ccc(O)c(O)c1)O[C@@H]1CC(O)(C(=O)O)C[C@@H](OC(=O)/C=C/c2ccc(O)c(O)c2)C1O ; read by: 3′ processing ; strain: LAI ; value: 0.33 ± 0.12 µg/mL
NCCCNCCCCNCCCN ; read by: strand transfer ; value: >100 µM
O=Cc1cc(S(=O)(=O)c2ccc(O)c(C=O)c2)ccc1O ; read by: 3′ processing ; value: 0.6 µM
N#C/C(=C\c1cc(O)c(O)c(I)c1)C(=O)NCCCc1ccccc1 ; read by: strand transfer ; value: 10–100 µM
O=C1c2c(O)ccc(O)c2C(=O)C2C1C[C@H](O)[C@H](O)[C@@H]2O ; read by: 3′ processing ; value: 30 µM
CN(C)C1C(=O)C(C(=O)NCNCCCO)=C(O)C2(O)C(=O)C3=C(O)c4c(O)cccc4C(C)(O)C3CC12 ; read by: 3′ processing ; strain: RF ; value: 1.2 µM
O=C1c2cccc(O)c2C(=O)c2c(O)cccc21 ; read by: strand transfer ; value: >100 µM
Nc1c(C(=O)Nc2ccc(NC(=O)c3ccc4c(c3N)C(=O)c3ccccc3C4=O)c3c2C(=O)c2ccccc2C3=O)ccc2c1C(=O)c1ccccc1C2=O ; read by: 3′ processing ; value: >250 µM
COc1cccc2c1C(=O)c1c(O)c3c(c(O)c1C2=O)C[C@@](O)(C(=O)CO)C[C@@H]3OC1CC(N2CCOCC2)C(O)[C@H](C)O1 ; read by: strand transfer ; strain: RF ; value: 1.5 µM
Cc1c2ccncc2c(C)c2c1[nH]c1ccccc12 ; read by: 3′ processing / substrate cleavage ; value: 30.1 µM
COc1cc(/C=C/c2ccc3c(C(=O)O)cc(C(=O)O)c(O)c3n2)cc(O)c1O ; read by: strand transfer ; value: 0.007 µM
COc1ccc2[nH]c3ccc4cc[n+](CCN5CCC(C6CCN(CC[n+]7ccc8ccc9[nH]c%10ccc(OC)cc%10c9c8c7)CC6)CC5)cc4c3c2c1 ; read by: strand transfer ; value: 0.8 µM
CN/N=C(/c1nc2ccc([N+](=O)[O-])cc2[nH]c1=O)C(O)c1ccc(C(O)/C(=N/NC)c2nc3ccc([N+](=O)[O-])cc3[nH]c2=O)cc1 ; read by: strand transfer ; strain: RF ; value: >160 µM
O=[N+]([O-])c1cc(S(=O)(=O)c2ccc(S)c([N+](=O)[O-])c2)ccc1S ; read by: 3′ processing ; value: 2.9 µM
N#C/C(=C\c1ccc(O)c(O)c1)C(=O)NCCCCCCNC(=O)/C(C#N)=C/c1ccc(O)c(O)c1 ; read by: 3′ processing / substrate cleavage ; value: 1.35 µM
CN(C)[C@@H]1C(=O)C(C(=O)NCNC(CO)(CO)CO)=C(O)[C@@]2(O)C(=O)C3=C(O)c4c(O)cccc4[C@@](C)(O)[C@H]3C[C@@H]12.Cl ; read by: 3′ processing ; strain: RF ; value: 1.1 µM
CC[n+]1c(-c2ccccc2)c2cc(N)ccc2c2ccc(N)cc21 ; read by: 3′ processing / substrate cleavage ; value: 3 µM
N#C/C(=C\c1cc(O)c(O)c(O)c1)C(=O)NCCCCNC(=O)/C(C#N)=C/c1cc(O)c(O)c(O)c1 ; read by: disintegration ; value: 0.4 µM
O=[N+]([O-])c1cc(S(=O)(=O)c2ccc(F)c([N+](=O)[O-])c2)ccc1F ; read by: 3′ processing ; value: 51 µM
C/C=C/c1cc(=O)c(C(=O)c2c(OC)cc(OC)cc2C(=O)OC)co1 ; read by: absorbance ; value: 11 µM
N#C/C(=C\c1ccc(O)c(O)c1)C(=O)NCCCCCCCCNC(=O)/C(C#N)=C/c1ccc(O)c(O)c1 ; read by: 3′ processing / substrate cleavage ; value: 5–10 µM
COC(=O)c1cc(OC)c(OC)c(OC)c1-c1cc2c(cc1C=O)OCO2 ; read by: 3′ processing ; value: >250 µM
COC(=O)C(=O)OC1(C(=O)O)C[C@@H](OC(=O)/C=C/c2ccc(O)c(O)c2)C(O)[C@H](OC(=O)/C=C/c2ccc(O)c(O)c2)C1 ; read by: disintegration ; strain: LAI ; value: 0.47 ± 0.28 µg/mL
O=C1/C(=C/c2ccc([N+](=O)[O-])c(O)c2)CNC/C1=C\c1ccc([N+](=O)[O-])c(O)c1 ; read by: 3′ processing ; value: >100 µM
CC1CC2=Cc3c(O)c(O)cc(O)c3C(=O)C2=CO1 ; read by: 3′ processing ; value: 19 µM
O=C(O)/C=C/c1ccc(O)c(O)c1 ; read by: absorbance ; value: 2.8 µM
CN1C/C(=C\c2ccc(O)c([N+](=O)[O-])c2)C(=O)/C(=C/c2ccc(O)c([N+](=O)[O-])c2)C1 ; read by: 3′ processing ; value: >100 µM
Nc1c2ccccc2nc2ccccc12 ; read by: 3′ processing / substrate cleavage ; value: >100 µM
CC(C)=C/C=C\[C@H](C)[C@H]1CC[C@]2(C)C[C@H]3[C@@H](C(=O)C[C@@]3(C)O)C(C=O)=C[C@@H]12 ; read by: absorbance ; value: 19 µM

The last 5 rows once more:

smiles | read by | strain | value
CC1CC2=Cc3c(O)c(O)cc(O)c3C(=O)C2=CO1 | 3′ processing | - | 19 µM
O=C(O)/C=C/c1ccc(O)c(O)c1 | absorbance | - | 2.8 µM
CN1C/C(=C\c2ccc(O)c([N+](=O)[O-])c2)C(=O)/C(=C/c2ccc(O)c([N+](=O)[O-])c2)C1 | 3′ processing | - | >100 µM
Nc1c2ccccc2nc2ccccc12 | 3′ processing / substrate cleavage | - | >100 µM
CC(C)=C/C=C\[C@H](C)[C@H]1CC[C@]2(C)C[C@H]3[C@@H](C(=O)C[C@@]3(C)O)C(C=O)=C[C@@H]12 | absorbance | - | 19 µM